# Potato spindle tuber viroid, stem 15: variant abundance in plants

Reference: Wu et al. 2024, doi:10.1371/journal.ppat.1012142.

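Three N. benthamiana plants were inoculated with the whole mutant pool. Samples came from the inoculated region at 5 days, the leaf margin at 10 and upper systemic leaves at 12.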

The pool varies stem 15 of the PSTVd intermediate strain in the pattern CUGGAGCGAUNGNNUNNG; wild type is CUGGAGCGAUCGCUUCGG (upper and lower strand joined, each 5' to 3', the first 9 letters being the upper strand).

Numbers give reads per thousand; 0 = not seen among the reads, higher = more abundant. Each site shows the three plants. "Pool" is the share in the plasmid pool used as inoculum, on the same scale. The inoculated region was read from the minus strand, the other sites from the plus strand. Sequences that differ at fixed positions probably stem from PCR or sequencing errors, and defective variants can be carried along by functional ones. Samples held 36,693 to 63,082 reads, so the smallest values rest on one or two reads. Wild type was 10.2 per thousand in the pool and the most common sequence in every sample (inoculated region 285, 367, 312; leaf margin 785, 865, 782; systemic leaves 854, 898, 915).

{"sequence": "CUGGAGCGAUAGCGUCGG", "pool": "0.727", "inoculated region": "0.215 / 0.168 / 0.354", "leaf margin": "0.0620 / 0.0273 / 0.0317", "systemic leaves": "0 / 0 / 0"}
{"sequence": "CUGGAGCGAUUGCGUCCG", "pool": "0.905", "inoculated region": "0.235 / 0.147 / 0.149", "leaf margin": "0.103 / 0.0273 / 0.0159", "systemic leaves": "0 / 0 / 0"}
{"sequence": "CUGGAGCGAUCGUGUUUG", "pool": "0.695", "inoculated region": "0.254 / 0.272 / 0.428", "leaf margin": "0.0827 / 0.0273 / 0", "systemic leaves": "0 / 0 / 0"}
{"sequence": "CUAGAGCGAUGGGAUCAG", "pool": "0.0162", "inoculated region": "0 / 0.0209 / 0", "leaf margin": "0 / 0 / 0", "systemic leaves": "0 / 0 / 0"}
{"sequence": "CUGGAGCGAUUGUCUCAG", "pool": "1.00", "inoculated region": "2.29 / 1.03 / 1.51", "leaf margin": "0.641 / 0.872 / 0.999", "systemic leaves": "0.733 / 0.554 / 0.438"}
{"sequence": "CUGGAGCGAUAGCUUCGG", "pool": "0.889", "inoculated region": "0.704 / 0.377 / 0.447", "leaf margin": "0.414 / 0.218 / 0.285", "systemic leaves": "1.74 / 0.133 / 0.239"}
{"sequence": "CUGUAGCGAUUGCCUUAG", "pool": "0.0162", "inoculated region": "0 / 0 / 0", "leaf margin": "0 / 0 / 0.0159", "systemic leaves": "0 / 0 / 0"}
{"sequence": "CUGGAGCGAUGGCCUCUG", "pool": "0.937", "inoculated region": "0.196 / 0.168 / 0.242", "leaf margin": "0.0207 / 0.0273 / 0.0159", "systemic leaves": "0 / 0 / 0"}
{"sequence": "CUGGAGCGAUGGCCUGGG", "pool": "0.808", "inoculated region": "0.313 / 0.230 / 0.298", "leaf margin": "0.0207 / 0.0273 / 0", "systemic leaves": "0 / 0 / 0"}
{"sequence": "CUGGAGCGAUAGUGUACG", "pool": "0.614", "inoculated region": "0.196 / 0.209 / 0.242", "leaf margin": "0 / 0.0273 / 0.0159", "systemic leaves": "0 / 0 / 0"}
{"sequence": "CUGGAGCGAUAGUCUGAG", "pool": "0.743", "inoculated region": "2.15 / 0.942 / 0.261", "leaf margin": "0.0620 / 0 / 0.0476", "systemic leaves": "0 / 0 / 0"}
{"sequence": "CUGGAGCGAUAGCUUAGG", "pool": "0.679", "inoculated region": "0.313 / 0.293 / 0.409", "leaf margin": "0.165 / 0.0273 / 0.0476", "systemic leaves": "0 / 0 / 0"}
{"sequence": "CUGGAGCGAUUGCUUAAG", "pool": "0.905", "inoculated region": "0.196 / 0.188 / 0.186", "leaf margin": "0.0207 / 0 / 0", "systemic leaves": "0 / 0 / 0"}
{"sequence": "CUGGAGCGAUCGCUUCGA", "pool": "0.0646", "inoculated region": "0.0978 / 0.251 / 0.168", "leaf margin": "0.0620 / 0.245 / 0.317", "systemic leaves": "0.119 / 0.465 / 0.279"}
{"sequence": "CUGGAGCGAUCGGUUGCG", "pool": "1.10", "inoculated region": "0.254 / 0.293 / 0.335", "leaf margin": "0 / 0.0545 / 0.0476", "systemic leaves": "0 / 0 / 0"}
{"sequence": "CUCGAGUGAUGGUUUAUG", "pool": "0.0162", "inoculated region": "0 / 0 / 0", "leaf margin": "0 / 0 / 0", "systemic leaves": "0 / 0 / 0"}
{"sequence": "CUGGAGCGAUUGAGUCCG", "pool": "0.954", "inoculated region": "0.254 / 0.272 / 0.447", "leaf margin": "0.186 / 0.0545 / 0.0476", "systemic leaves": "0 / 0 / 0"}
{"sequence": "CUGGAGCGAUAGGUUGUG", "pool": "0.857", "inoculated region": "0.294 / 0.272 / 0.279", "leaf margin": "0.0620 / 0.0273 / 0.0159", "systemic leaves": "0 / 0 / 0"}
{"sequence": "CUGGAGCGAUCGUAUCUG", "pool": "0.808", "inoculated region": "0.294 / 0.126 / 0.242", "leaf margin": "0.0207 / 0 / 0.0159", "systemic leaves": "0 / 0 / 0"}
{"sequence": "CUGGAGCGAUUGGAUAUG", "pool": "0.646", "inoculated region": "0.391 / 0.293 / 0.521", "leaf margin": "0.0207 / 0.0273 / 0", "systemic leaves": "0 / 0 / 0"}
{"sequence": "CUGGAGCGAUCGGGUUUG", "pool": "0.711", "inoculated region": "0.313 / 0.293 / 0.391", "leaf margin": "0.0414 / 0 / 0.0317", "systemic leaves": "0 / 0 / 0"}
{"sequence": "CUGGAGCGAUUGGCUUGG", "pool": "1.37", "inoculated region": "2.05 / 1.49 / 1.79", "leaf margin": "0.765 / 0.327 / 0.888", "systemic leaves": "0.713 / 0.399 / 0.399"}
{"sequence": "CUGGAGCGAUCGGGUGAG", "pool": "1.24", "inoculated region": "0.274 / 0.377 / 0.223", "leaf margin": "0.145 / 0.0545 / 0.0159", "systemic leaves": "0 / 0 / 0"}
{"sequence": "CUGGAGCGAUGGCUUUAG", "pool": "1.07", "inoculated region": "0.352 / 1.17 / 0.223", "leaf margin": "0.0414 / 0.0545 / 0", "systemic leaves": "0 / 0 / 0"}
{"sequence": "CUGGAGCGAUAGUGUUUG", "pool": "1.45", "inoculated region": "0.763 / 1.76 / 0.744", "leaf margin": "0.0414 / 0.0545 / 0.0159", "systemic leaves": "0 / 0 / 0.0199"}
{"sequence": "CUGGAGCGAUAGCUUUGG", "pool": "0.679", "inoculated region": "0.294 / 0.251 / 0.298", "leaf margin": "0.0414 / 0.0818 / 0.0317", "systemic leaves": "0 / 0 / 0"}
{"sequence": "CUGGAGCGAUUGAUUAUG", "pool": "2.49", "inoculated region": "1.13 / 0.921 / 1.17", "leaf margin": "0.0414 / 0.0545 / 0.127", "systemic leaves": "0 / 0 / 0.0199"}
{"sequence": "CUGGAGCGAUCGAGUGAG", "pool": "0.760", "inoculated region": "0.254 / 0.251 / 0.223", "leaf margin": "0.0827 / 0.0273 / 0.0159", "systemic leaves": "0 / 0 / 0"}
{"sequence": "CUGGAGCGAUGGUGUCAG", "pool": "0.824", "inoculated region": "0.176 / 0.293 / 0.298", "leaf margin": "0 / 0.0545 / 0", "systemic leaves": "0 / 0 / 0"}

The opening 3 entries, copied out:

sequence	pool	inoculated region	leaf margin	systemic leaves
CUGGAGCGAUAGCGUCGG	0.727	0.215 / 0.168 / 0.354	0.0620 / 0.0273 / 0.0317	0 / 0 / 0
CUGGAGCGAUUGCGUCCG	0.905	0.235 / 0.147 / 0.149	0.103 / 0.0273 / 0.0159	0 / 0 / 0
CUGGAGCGAUCGUGUUUG	0.695	0.254 / 0.272 / 0.428	0.0827 / 0.0273 / 0	0 / 0 / 0